Experimental findings from the supplement of paper PMC9931576 are described below.

Human monoclonal antibodies against the spike receptor-binding domain (heavy:light variable regions). IC50 against pseudoviruses bearing the spike of naturally observed variants; lower = stronger; >10 µg/ml means not reached at the top dose. No active / inactive call. The stated detection limit is 0.0005 µg/ml; values near or below 0.001 µg/ml lie at the floor of the assay.

First the molecules themselves.
B1: BD55-6218 (protein)
chain 1: EVQLVETGGGLVKPGRSLRLSCSASGFSFGDYAMSWFRQAPGKGLEWVGFIRSAAYGATPEYAPSVRGRFALSRDDSKSIAYLQMDSLKTEDTAVYYCSREGRLPSYYYYGMDVWGQGTTVTVSS
chain 2: DIQLTQSPSSLSASVGDRVTITCRASQSISFYVNWYQQNPGKAPKFLIYAASTLQTGVPSRFSGSGSGTDFTLTISSLQPEDFATYYCQQSYSIPLTFGGGTKVEIK
B2: BD55-6241 (protein)
chain 1: EVQLVQSGAEVKKPGESLKISCKAYGYSFSTDWIAWVRQMPGKGLEWMGIIYPGDSETRYNPSFQGQVTISADESISTAYLQWSSLKASDTAIYYCARQTTHHWGFGGSYRYGFWGQGTLVTVSS
chain 2: QSVLTQPPSVSAAPGQRVTISCSGSGSNIGINYVSWYQQLPGTAPKLIIYDNHDRPSGIPDRFSGSKSGTSATLDITRLQTGDEANYYCATWDTNLSAVLFGGGTKLTVL
B3: BD55-1199 (protein)
chain 1: QLLLQESGPGLVKPSETLSLTCTVSGDSFSDSIYYWGWIRQPPGKGLEWLGTIYYYGSTYYNPSLKSRVSISVDTSKNRFSLNLNSVTAADTAVYYCAREMEQLGHYYGMDVWGQGTTVTVSS
chain 2: SYVLTQPPSVSVAPGKTARITCGGNNIGSKSVHWYQQKPGQAPVLVIFYDSDRPSGIPERFSGSNSGNTATLTISRVEAGDEADYYCQVCDSSRDHRVFGGGTKLTVL
B4: BD55-6214 (protein)
chain 1: QVQLQQWGAGLLRPSETLSLTCAVYGGSFSGYYWSWIRQSPGKGLEWLGEIDHSGSTNYNPSLMTRVTISVDRSKNQFSLKLTSVTAADTAVYFCARVGRGYSAYDYYHYYFMDVWGKGSAVTVSS
chain 2: DNQMTQSPSSLSASVGDRVTITCRASQNLTRNLNWYQQKPGEAPKLLIYAASSLHGGVPSRFSGSGSGTDFTLTISSLQPEDFATYYCQQSYSPNTFGQGTKLEIK
B5: BD55-6250 (protein)
chain 1: QVQLVESGGGVVQPGRSLRLSCAASGFTFSTYGMHWVRQAPGKGLEWVALIWNDGSKTYYIDSVKGRFTISRDNSKNTVYLQMNSLRAEDTAVYYCARDSLCSGGSCYFDYNWFDFWGQGTLVTVSS
chain 2: EIVLTQSPATLSLSPGERATLSCRASQSVSRHLAWYQQKPGQAPRLLIYDASNRANGVPARFSGSGSGTDFTLTISSLEPEDFAVYYCQQRYTWPPAYTFGQGTKLQIK
B6: BD55-6243 (protein)
chain 1: EVQLLESGGGLVQPGGSLRLSCAASGFTFSDYAMSWVRQPPGKGLEWVSTISGSGASTYYIDSVKGRFTISRDSSKNTLYLQLNSLRAEDTAVYFCAKEMAFYDILTDSNWFDPWGQGTLVTVSS
chain 2: SYELTQPPSVSVSPGQTARITCSGDALPKKYTYWYQQKSGQAPVLVIYEDTKRPSGIPERFSGSTSGTMATLTIRGAQVEDEADYYCYSTDSSSYHRRVFGGGTKLTVL
B7: BD55-6223 (protein)
chain 1: EEHLVESGGGLVRPGGSLRLSCAASGFTFSHYAMHWVRQAPGKGLEYVSSISSDGGLTFYANSVKGRFTISRDNSKNTLYLQMGSLRGEDMALYYCARETRDHIVVVLDFWGQGTLVTVSS
chain 2: DIQMTQSPSSLSASVGDRVSITCRASQSISRYLNWYQQKPGKAPILLIFAASSLQRGVPSRFSGSGSGTDFTLTISSLQPEDFATYYCQQSYINPEYTFGQGTKLEIK
B8: BD55-6233 (protein)
chain 1: QVQLQESGPGLVKPSETLPLTCSVSGASISTGGGHWGWIRQPPGKELEWIGSIYDGGRTYYNPSLKGRVTISVDTSRNQFSLKLSSVTAADTAVYYCARTAWFGELDDYWGQGTLVTVSS
chain 2: QSVLTQPPSASGTPGQRVSISCSGSSSNIGTNYVYWYQQFPGTAPKLLIYGSNRRPSGVPDRFSGSKSGTSASLAISGLRSEDEAEYYCAAWDDSLQVVFGGGTKLTVL
B9: BD55-6232 (protein)
chain 1: EVQLVESGGGLVKPGRSLRLSCTGSGFTFGDYSLSWFRQAPGKGLEWVGFIRNPAYGGTTEYAPSVQGRVTISRDDSNSVAYLQMNSLNTEDTAVYYCTREGIYGYFYYYAMDVWGQGTTVTVSS
chain 2: DIQMTQSPSSLSASVGDRVTITCRASQSISFYVNWYQQKPGKAPKILMYEVSSLQSGVPSRFSGSGSGTDFTLTISSLQPEDFATYYCQQSYSIPLTFGGGTKVEI
B10: BD55-6229 (protein)
chain 1: QVQLQESGPGLVKPSETLSLTCTVSGVSVSSFYWSWLRQPPGKGLEWIGDIDNSGNTNYNPSLRSRVSISIDTSKNQFSLRLSSVTAADTAMYHCARYWHTSGYYWLDPWGQGTLVTVSS
chain 2: DIQMTQSPSSLSASVGDRVSLTCRASQTIGNYLNWYQQRPGKAPNLLIYAASTLQSGVPSRFSGSGSGADFTLTITSLQPEDFATYFCQQSYSTPPVTFGGGTKVE
B11: BD55-6254 (protein)
chain 1: QLHLQESGPGLVKPSETLSLTCTVSGGSINTRGSYWGWIRQPPGKGLEWIGSIYYSGSTYSNPSLESRLTMSVDVSKNQFSLKLSSVIAADTAVYYCVRPFVRDYFSAHTHWFDPWGQGALVTVSS
chain 2: EIVLTQSPGTLSLSPGERATLSCRASQSVSDNCLVWYQQKPGQAPRLLIYGASSRATGIPERFSGRGSGTEFTLTINRLEPEDFAVYYCQQYGNSPETFGQGTKVEIK
B12: BD55-6222 (protein)
chain 1: EVQLVASGGGLVQPGGSLRLSCAASGFKFTAYDMHWVRQATGKGLEWVASIDTAGDTYYADSVRGRFTISRENAKNSFYLQMKSLRAGDTAVYYCARDYPWHDLLAGESSSFGMDVWGQGITVTVSS
chain 2: EIVLTQSPATLSLSPGEGATLSCRASQSVRGSLIWYQQRPGQAPRLLIYDASNRATGIPARFSGSGSGTDFTLTISSLEPEDFAVYFCQQRSNWPLTFGQGTKVEIK

The first experiment has as its target SARS-CoV-2 Omicron BA.1 spike pseudovirus. As to the kind of experiment: pseudovirus neutralization IC50; higher = weaker neutralization. As for the experimental part: (§1)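 Single-round VSV luciferase pseudovirus mixed with antibody dilutions for 1 h and put on Huh-7 cells for about a day; IC50 from the dose curve.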
On to B1, for which the “pseudovirus neutralization IC50” value was more than 10 mg/L.
Consider B2, for which the “pseudovirus neutralization IC50” value was more than 10 mg/L.
Take B3: the “pseudovirus neutralization IC50” value is more than 10 mg/L.
For the molecule B4, the “pseudovirus neutralization IC50” value was more than 10 mg/L.
Consider B5, for which the “pseudovirus neutralization IC50” value was more than 10 mg/L.
The same measure, in the same setting: the figure for B6 is more than 10 mg/L; for B7 it is more than 10 mg/L; for B8 it is more than 10 mg/L.
Still for that read-out and setting: the figure for B9 is more than 10 mg/L; for B10 it is more than 10 mg/L.
On to B11, for which the “pseudovirus neutralization IC50” value was more than 10 mg/L.
B12: the “pseudovirus neutralization IC50” value is more than 10 mg/L.

Another experiment deals with SARS-CoV-2 Omicron BA.2 spike pseudovirus. The description is as above. As for the experimental part:
as §1
In the case of B1, the “pseudovirus neutralization IC50” value is more than 10 mg/L.
Take B2: the “pseudovirus neutralization IC50” value is more than 10 mg/L.
As for B3, the “pseudovirus neutralization IC50” value is more than 10 mg/L.
Turning to B4, the “pseudovirus neutralization IC50” value is more than 10 mg/L.
In the case of B5, the “pseudovirus neutralization IC50” value is more than 10 mg/L.
In the case of B6, the “pseudovirus neutralization IC50” value is more than 10 mg/L.
Turning to B7, the “pseudovirus neutralization IC50” value is more than 10 mg/L.
Regarding B8, the “pseudovirus neutralization IC50” value is more than 10 mg/L.
Take B9: the “pseudovirus neutralization IC50” value is more than 10 mg/L.
For B10, the “pseudovirus neutralization IC50” value was more than 10 mg/L.
As for B11, the “pseudovirus neutralization IC50” value was more than 10 mg/L.
On the same count and under the same terms, with B12 the figure was more than 10 mg/L.

In a further experiment the target is SARS-CoV-2 Omicron BA.2.75 spike pseudovirus. Described as above. On the procedure: as §1
On to B1, for which the “pseudovirus neutralization IC50” value was more than 10 mg/L.
For the molecule B2, the “pseudovirus neutralization IC50” value was more than 10 mg/L.
Regarding B3, the “pseudovirus neutralization IC50” value is more than 10 mg/L.
With B4, the “pseudovirus neutralization IC50” value is more than 10 mg/L.
Regarding B5, the “pseudovirus neutralization IC50” value was more than 10 mg/L.
Consider B6, for which the “pseudovirus neutralization IC50” value is more than 10 mg/L.
B7: the “pseudovirus neutralization IC50” value was more than 10 mg/L.
As for B8, the “pseudovirus neutralization IC50” value is more than 10 mg/L.
The same measure, in the same setting: the figure for B9 is more than 10 mg/L.
Consider B10, for which the “pseudovirus neutralization IC50” value is more than 10 mg/L.
Consider B11, for which the “pseudovirus neutralization IC50” value is more than 10 mg/L.
As for B12, the “pseudovirus neutralization IC50” value was more than 10 mg/L.

Another experiment concerns the target SARS-CoV-2 Omicron BA.5 spike pseudovirus. The experiment is described as above. On the procedure:
as §1
On to B1, for which the “pseudovirus neutralization IC50” value was more than 10 mg/L.
As to B2, the “pseudovirus neutralization IC50” value is more than 10 mg/L.
B3: the “pseudovirus neutralization IC50” value was more than 10 mg/L.
Still for that read-out and setting: with B4 the figure was more than 10 mg/L.
For B5, the “pseudovirus neutralization IC50” value is more than 10 mg/L.
The same measure, in the same setting: the figure for B6 is more than 10 mg/L; for B7 it is more than 10 mg/L.
Turning to B8, the “pseudovirus neutralization IC50” value was more than 10 mg/L.
Turning to B9, the “pseudovirus neutralization IC50” value was more than 10 mg/L.
The same measure, in the same setting: with B10 the figure was more than 10 mg/L; with B11, more than 10 mg/L.
As to B12, the “pseudovirus neutralization IC50” value is more than 10 mg/L.

The target in the next experiment is SARS-CoV-2 Omicron BQ.1.1 spike pseudovirus. The experiment is described as above. On the procedure: as §1
Take B1: the “pseudovirus neutralization IC50” value was more than 10 mg/L.
In the case of B2, the “pseudovirus neutralization IC50” value is more than 10 mg/L.
Same read-out and setting: the figure for B3 is more than 10 mg/L.
In the case of B4, the “pseudovirus neutralization IC50” value is more than 10 mg/L.
For the molecule B5, the “pseudovirus neutralization IC50” value was more than 10 mg/L.
For the molecule B6, the “pseudovirus neutralization IC50” value is more than 10 mg/L.
Consider B7, for which the “pseudovirus neutralization IC50” value was more than 10 mg/L.
As for B8, the “pseudovirus neutralization IC50” value is more than 10 mg/L.
As for B9, the “pseudovirus neutralization IC50” value was more than 10 mg/L.
With B10, the “pseudovirus neutralization IC50” value is more than 10 mg/L.
Still for that read-out and setting: with B11 the figure was more than 10 mg/L.
Regarding B12, the “pseudovirus neutralization IC50” value was more than 10 mg/L.

Another experiment addresses SARS-CoV-2 Omicron XBB spike pseudovirus. Described as above. As for the experimental part:
as §1
Take B1: the “pseudovirus neutralization IC50” value was more than 10 mg/L.
The same measure, in the same setting: the figure for B2 is more than 10 mg/L; for B3 it is more than 10 mg/L.
In the case of B4, the “pseudovirus neutralization IC50” value is more than 10 mg/L.
As to B5, the “pseudovirus neutralization IC50” value was more than 10 mg/L.
With B6, the “pseudovirus neutralization IC50” value is more than 10 mg/L.
On the same count and under the same terms, with B7 the figure was more than 10 mg/L; with B8, more than 10 mg/L.
On to B9, for which the “pseudovirus neutralization IC50” value was more than 10 mg/L.
For the molecule B10, the “pseudovirus neutralization IC50” value is more than 10 mg/L.
In the case of B11, the “pseudovirus neutralization IC50” value is more than 10 mg/L.
In the case of B12, the “pseudovirus neutralization IC50” value is more than 10 mg/L.

A further experiment concerns the target SARS-CoV-2 early D614G spike pseudovirus. The description is as above. As for the experimental part:
as §1
Regarding B1, the “pseudovirus neutralization IC50” value was more than 10 mg/L.
On the same count and under the same terms, the figure for B2 is 0.00492 mg/L; for B3 it is 1.79 mg/L.
Regarding B4, the “pseudovirus neutralization IC50” value is more than 10 mg/L.
Take B5: the “pseudovirus neutralization IC50” value was more than 10 mg/L.
On the same count and under the same terms, with B6 the figure was 0.263 mg/L; with B7, more than 10 mg/L.
Regarding B8, the “pseudovirus neutralization IC50” value is more than 10 mg/L.
For B9, the “pseudovirus neutralization IC50” value is more than 10 mg/L.
On the same count and under the same terms, the figure for B10 is 0.507 mg/L.
Turning to B11, the “pseudovirus neutralization IC50” value was more than 10 mg/L.
Take B12: the “pseudovirus neutralization IC50” value is 0.355 mg/L.
